Anti-infective test results gathered from many reports (values: NIAID ChemDB through PubChem).

Shared fields: tests in culture; species: Hepatitis B virus

An empty or dashed field is not shown. Two numbers with a dash give a range or band. Percent inhibition refers to the dose given; in toxicity tests it is the harm to the cells. ECn is the concentration giving n% inhibition of infection, replication or growth. Lines come from different laboratories, so protocols vary.

structure	tested at	endpoint	method	cell line	value
O=C1NNC(=O)c2c(ncn2[C@@H]2O[C@H](CO)[C@@H](O)[C@H]2O)N1		EC10		2.2.15	30 µM
NS(=O)(=O)c1cccc(-n2c(C(=O)NCc3ccccc3)c3n(c2=O)CCN(C(=O)c2ccc(Br)c(Cl)c2)C3)c1		EC50	PCR	HepG2.117	>5 µM
CCCCCCCCCCCCCC(=O)Nc1nc(N)nc2c1ncn2[C@H]1CO[C@@H](CO)O1		EC90	PCR	HepAD38	>10 µM
Nc1ccn([C@@H]2CS[C@H](CO)O2)c(=O)n1		EC90		HepG2	0.4 µM
COc1ccc(-n2c(C(=O)NCc3ccc(F)c(OC)c3)c3n(c2=O)CCN(C(=O)c2ccc(Cl)c(Cl)c2)C3)cc1		EC50	PCR	HepG2.117	0.5–5 µM
Cc1n[nH]nc1-c1ccc(-n2c(=O)c3c(n4ncc(CC(C)C)c24)CN(C(=O)c2ccc(Cl)c(C(F)(F)F)c2)[C@H](C)C3)cc1		EC50	luminescence	HepG2.117	≤0.05 µM
O=C(O)c1cc2c(n(C3CC3)c1=O)-c1cc(Cl)c(OCc3cnc(N4CCCC4)nc3)cc1S(=O)(=O)C2		EC50	antigen / visual reading / absorbance	Primary human hepatocytes	>0.5 µM
Cc1n[nH]nc1-c1ccc(-n2c(=O)c3c(n4ncc(CC(C)C)c24)CN(C(=O)c2ccc(Cl)c(C(F)(F)F)c2)[C@@H](C)C3)cc1		EC50	luminescence	HepG2.117	0.5–5 µM
COCCCOc1cc2c(cc1Cl)-c1c(cc(C(=O)O)c(=O)n1C1CC1)CS2=O		EC50	antigen / visual reading / absorbance	Primary human hepatocytes	0.05–0.1 µM
COc1cc(CNC(=O)c2c3n(c(=O)n2-c2ccc(OC(C)C)cc2)CCN(C(=O)c2ccc(Br)c(Cl)c2)C3)ccc1C#N		EC50	PCR	HepG2.117	0.5–5 µM
COCCCOc1cc2c(cc1Cl)-c1c(cc(C(=O)O)c(=O)n1C1CCC1)C(C)S2		EC50	antigen / visual reading / absorbance	Primary human hepatocytes	0.05–0.1 µM
CCOC(=O)[C@H](C)NP(=O)(OC[C@@H]1OC[C@H](n2cnc3c(N)nc(N)nc32)O1)Oc1ccccc1		EC90	PCR	HepAD38	2.8 µM
COc1ccc(-n2c(C(=O)NCc3cccnc3)c3n(c2=O)CCN(C(=O)c2ccc(Cl)c(Cl)c2)C3)cc1		EC50	PCR	HepG2.117	>5 µM
CC1c2cc(C(=O)O)c(=O)n(C3CC3)c2-c2cc(Cl)c(OC3CCOCC3)cc2S1(=O)=O		EC50	antigen / visual reading / absorbance	Primary human hepatocytes	>0.5 µM
CCCCCCCCCCCC(=O)Nc1nc(N)nc2c1ncn2[C@H]1CO[C@@H](COP(=O)(N[C@@H](C)C(=O)OCC)Oc2ccccc2)O1		EC90	PCR	HepAD38	≥10 µM
O=C(O[C@@H]1Cc2c(O)cc(O)cc2O[C@@H]1c1cc(O)c(O)c(O)c1)c1cc(O)c(O)c(O)c1	25 µM	inhibition	PCR		42.2%
C[C@H]1Cc2c(n3ncc(Cc4ccccc4)c3n(-c3ccc(-c4n[nH]c(C(F)(F)F)n4)cc3)c2=O)CN1C(=O)c1ccc(Br)c(C(F)(F)F)c1		EC50	luminescence	HepG2.117	0.05–0.5 µM
CCCCCCCC/C=C\CCCCCCCC(=O)Nc1nc(N)nc2c1ncn2[C@H]1CO[C@@H](CO)O1		EC90	PCR	HepAD38	>10 µM
C[C@@H]1Cc2c(n3ncc(CC4CC4)c3n(-c3ccc(-c4nncn4C)cc3)c2=O)CN1C(=O)c1ccc(Br)c(C(F)(F)F)c1		EC50	luminescence	HepG2.117	≤0.05 µM
Oc1ccc([C@H]2Oc3cccc(O)c3C(c3c(O)cc(O)c4c3O[C@H](c3ccc(O)c(O)c3)[C@@H](O)C4)[C@H]2O)cc1O	30 µM	inhibition	ELISA / antigen	HepG2.2.15	62.3%
CNC(=O)c1cc2c(cc1OCCCOC)S(=O)(=O)C(C)c1cc(C(=O)O)c(=O)n(C3CC3)c1-2		EC50	antigen / visual reading / absorbance	Primary human hepatocytes	>0.5 µM

Repeating the final 2 entries:

structure,tested at,endpoint,method,cell line,value
Oc1ccc([C@H]2Oc3cccc(O)c3C(c3c(O)cc(O)c4c3O[C@H](c3ccc(O)c(O)c3)[C@@H](O)C4)[C@H]2O)cc1O,30 µM,inhibition,ELISA / antigen,HepG2.2.15,62.3%
CNC(=O)c1cc2c(cc1OCCCOC)S(=O)(=O)C(C)c1cc(C(=O)O)c(=O)n(C3CC3)c1-2,,EC50,antigen / visual reading / absorbance,Primary human hepatocytes,>0.5 µM